The direction of at least one scale is not stated here. Protein sequences can lack the tags named with them.
Assays:
[1] = molecular target: T1, LmjF.36.5420 (Leishmania major) (UniProt Q4Q0L9); assay: pull-down; conditions: 20 nM protein, 1.5 uM RNA pool; 20 mM HEPES pH 7.8, 70 mM KCl, 10 mM NaCl, 10% glycerol, 2 mM DTT, 0.1 ug/uL BSA; 30 min, 4 C; purified recombinant protein; protein details: N-terminal GST (kept); only the motif is given
T1 sequence: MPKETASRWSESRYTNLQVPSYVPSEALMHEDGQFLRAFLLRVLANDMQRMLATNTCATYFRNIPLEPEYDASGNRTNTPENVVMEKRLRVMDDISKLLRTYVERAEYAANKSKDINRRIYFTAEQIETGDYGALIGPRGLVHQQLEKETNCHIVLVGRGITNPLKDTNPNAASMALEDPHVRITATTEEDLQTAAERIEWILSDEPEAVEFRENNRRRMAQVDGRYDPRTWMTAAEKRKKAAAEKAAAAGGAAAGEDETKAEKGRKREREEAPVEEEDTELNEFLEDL

[2] = molecular target: T2, LmjF.17.0550 (Leishmania major) (UniProt Q4QED9); assay: pull-down; conditions: 20 nM protein, 1.5 uM RNA pool; 20 mM HEPES pH 7.8, 70 mM KCl, 10 mM NaCl, 10% glycerol, 2 mM DTT, 0.1 ug/uL BSA; 30 min, 4 C; purified recombinant protein; protein details: N-terminal GST (kept); only the motif is given
T2 sequence: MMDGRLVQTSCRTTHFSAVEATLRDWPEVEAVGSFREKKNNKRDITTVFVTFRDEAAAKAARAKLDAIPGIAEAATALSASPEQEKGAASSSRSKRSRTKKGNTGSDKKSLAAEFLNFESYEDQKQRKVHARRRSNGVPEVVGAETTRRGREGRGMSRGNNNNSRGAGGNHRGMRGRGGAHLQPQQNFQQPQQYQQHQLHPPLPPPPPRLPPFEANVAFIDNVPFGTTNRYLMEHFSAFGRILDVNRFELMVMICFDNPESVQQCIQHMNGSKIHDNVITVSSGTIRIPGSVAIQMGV

ACAACUA [RNAcompete motif RNCMPT00692]
binding signal (z-score (mean of top ten 7-mers)) [1]: 5.55

GCGCGG [RNAcompete motif RNCMPT00615]
binding signal (z-score (mean of top ten 7-mers)) [2]: 4.66

From paper PMC12990809
